# Data as given in PubChem BioAssay AID624099 (ICCB-Longwood, 2012).
# Screen: 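Host factors E2 relies on to silence an HPV18 LCR reporter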 (primary screen)
# System: human C33A cervical carcinoma cells (HPV-negative) stably expressing BPV1 E2 and an HPV18 LCR luciferase reporter
# Knock-down reagent: siRNA pool against human genes, 40 nM
# Time to read-out: 72 h
# Detection: 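Per-well luciferase luminescence, z-scored on each plate against the plate mean and SD with control wells left out, then averaged across three replicate plates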
# Scale: mean z-score and z-score: higher = stronger reporter signal, weaker E2 silencing
# Rule for the call: 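Mean z ≥ 2 together with z ≥ 2 in two or more of the three replicates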
# This is a random part of about 21,000 reagents tested. In the full data, 497 (2.4%) are marked active. 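Higher z means weaker E2 silencing; only reporter increases were scored, and knock-downs that hurt cell survival may mask genuine repressor factors.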 Entries without a mark were called inactive.
gene,mean z-score,"z-score, replicate A","z-score, replicate B","z-score, replicate C"
MEIS1,-2.11,-1.88,-2.58,-1.87
SERPINA3,0.54,0.63,0.63,0.35
SFTA3,-0.48,-0.38,-0.37,-0.67
TOX4,0.38,0.27,0.56,0.31
IMPDH2,0.5,1.19,0.22,0.11
LOC388282,-0.2,-0.34,-0.26,-0.01
ACO2,0.72,0.6,0.84,0.73
TADA1,0.53,0.3,0.51,0.8
PXN,0.67,0.66,0.34,1.01
FGF17,-1.32,-1.3,-1.1,-1.57
MAFK,1.02,0.82,0.8,1.45
RBMS2,-1.13,-1.45,-1.02,-0.91
NPM1,-1.08,-1.22,-1.03,-0.98
C11orf58,0.37,0.53,0.43,0.15
LMTK2,0.82,0.93,0.55,0.96
LRRC37A,0.32,0.07,0.33,0.58
DNAJC11,-1.68,-2.09,-1.49,-1.46
ENTPD2,-0.31,-0.07,-0.23,-0.62
CCL11,0.32,0.25,0.42,0.31
IQCN,-0.58,-0.73,-0.29,-0.71
HSPC047 (retired record),-1.02,-1.09,-0.86,-1.11
CNR2,-0.67,-0.56,-0.93,-0.52
FBP1,0.52,0.56,0.36,0.65
DMRTB1,0.35,-0.05,0.55,0.57
CCDC63,1.75,1.56,1.48,2.22
TMEM150A,0.06,0.17,0.16,-0.14
MCHR1,1.61,1.8,1.34,1.68
CDCA8,-1.35,-1.67,-1.42,-0.96
RPE65,0.05,0.08,-0.13,0.19
FABP7,-1.19,-0.97,-1.28,-1.33
RPL10P9,-4.68,-4.95,-4.56,-4.53
APBA2,-0.24,-0.12,-0.35,-0.24
GAS6,0.36,0.78,0.35,-0.06
LOC392791 (retired record),-0.25,-0.16,-0.35,-0.23
PCDHGA8,0.77,0.53,0.94,0.83
FAM74A4,-0.24,0.14,-0.39,-0.47
DNAAF5,-0.34,-0.49,-0.48,-0.06
LOC643406,0.29,0.69,0.11,0.07
LY86-AS1,-1.27,-1.51,-0.9,-1.39

Targets listed so far whose gene name begins with R or r:
gene,mean z-score,"z-score, replicate A","z-score, replicate B","z-score, replicate C"
RBMS2,-1.13,-1.45,-1.02,-0.91
RPE65,0.05,0.08,-0.13,0.19
RPL10P9,-4.68,-4.95,-4.56,-4.53
